A mixed list of measured activities; the numbers were collected in NIAID ChemDB.

Shared fields: host cell toxicity; cells: Huh 5-2; read-out: CC50

Rows are shuffled and stem from different studies. CCn: concentration that lowers growth or viability of the cells by n%.

{"structure": "NC(=O)c1nc(C#CCc2cccc(F)c2)n(COCCO)n1", "value": "29 µg/mL"}
{"structure": "COC(=O)/C=C1\\S/C(=N/N=C/C2CCCCC2)NC1=O", "method": "MTS / absorbance", "value": "29.9 µM"}
{"structure": "Fc1cccc(Cn2ccc3nc(-c4ccccc4)nc-3c2)c1", "value": "3 µg/mL"}
{"structure": "COC(=O)/C=C1\\S/C(=N/N=C/c2ccc(N(C)C)cc2)NC1=O", "method": "MTS / absorbance", "value": ">50 µM"}
{"structure": "N#Cc1cccc(COc2c(-c3ccccc3)cc3occc(=O)c3c2O)c1", "method": "WST", "value": "55 µM"}
{"structure": "Cc1ccc(S(=O)(=O)/N=C2\\NC(=O)/C(=C/c3ccccc3Cl)S2)cc1", "method": "MTS", "value": "76.1 µM"}
{"structure": "O=c1ccoc2cc(-c3ccccc3)c(OCc3cccc(Cl)c3)c(O)c12", "method": "WST", "value": "54 µM"}
{"structure": "OC[C@H]1O[C@@H](n2cnc3cncnc32)[C@H](O)[C@@]1(O)CF", "method": "WST", "value": ">100 µM"}
{"structure": "Ic1ccc(Cn2ccc3nc(-c4ccccc4)nc-3c2)cc1", "value": "6 µg/mL"}
{"structure": "NC(=O)c1nc(C#CCc2ccc(F)cc2)n(COCCO)n1", "value": ">50 µg/mL"}
{"structure": "COC(=O)/C=C1\\S/C(=N/N=C/c2ccc(Cl)cc2)NC1=O", "method": "MTS / absorbance", "value": ">50 µM"}
{"structure": "CNc1ncnc2c1ncn2[C@@H]1O[C@H](CO)[C@](O)(CF)[C@H]1O", "method": "WST", "value": ">100 µM"}
{"structure": "Cc1ccc(CC#Cc2nc(C(N)=O)nn2COCCO)cc1", "value": ">50 µg/mL"}
{"structure": "COC(=O)/C=C1\\S/C(=N/N=C/c2ccccc2OCc2ccccc2)NC1=O", "method": "MTS / absorbance", "value": "23.9 µM"}
{"structure": "Brc1ccc(Cn2ccc3nc(-c4ccccn4)nc-3c2)cc1", "value": "24 µg/mL"}
{"structure": "Nc1ccc(S(=O)(=O)/N=C2/NC(=O)/C(=C/c3ccc(-c4ccccc4)cc3)S2)cc1", "method": "MTS", "value": ">115 µM"}
{"structure": "COc1cc(OC)c2c(=O)cc(-c3ccc(OP(=O)(O)OP(=O)(O)O)c(N)c3)n(C)c2c1", "value": ">50 µg/mL"}
{"structure": "COc1ccc(CC#Cc2nc(C(N)=O)nn2COCCO)cc1", "value": ">50 µg/mL"}
{"structure": "COC(=O)/C=C1\\S/C(=N/N=C/c2ccc(OCc3ccccc3)cc2)NC1=O", "method": "MTS / absorbance", "value": ">50 µM"}
{"structure": "[N-]=[N+]=NC[C@@]1(O)[C@@H](CO)O[C@@H](n2cnc3cncnc32)[C@@H]1O", "method": "WST", "value": ">100 µM"}
{"structure": "Cc1cccc(COc2c(-c3ccccc3)cc3occc(=O)c3c2O)c1", "method": "WST", "value": "45 µM"}
{"structure": "N#Cc1cccc(S(=O)(=O)N(Cc2c(Cl)cccc2Cl)c2cccc(C(=O)NC3CCC3)c2)c1", "method": "absorbance", "value": ">33 µM"}
{"structure": "COC(=O)/C=C1\\S/C(=N/N=C/c2ccc(OC)cc2)NC1=O", "method": "MTS / absorbance", "value": "36.9 µM"}
{"structure": "COc1ccc(/C=C2\\S/C(=N/S(=O)(=O)c3ccc(C)cc3)NC2=O)cc1", "method": "MTS", "value": "68.04 µM"}
{"structure": "NC(=O)c1nc(C#CCc2ccccc2)n(COCCO)n1", "value": ">50 µg/mL"}
{"structure": "Cc1ccc(S(=O)(=O)/N=C2\\NC(=O)/C(=C/c3ccc(-c4ccccc4)cc3)S2)cc1", "method": "MTS", "value": ">115 µM"}
{"structure": "NC(=O)c1nc(C#CCCCCCl)n(COCCO)n1", "value": ">50 µg/mL"}